In patent US20090041797A1 (ANGELICA THERAPEUTICS, published 2009):

B1: null construct DT382(G53E) (enzyme)
chain: not shown
B2: wild type DT382 (truncated diphtheria toxin, […] of DT387) (enzyme)
chain: not shown

Target: elongation factor-2 (EF-2) (rabbit (reticulocyte lysate))
Experiment: cell-based or functional assay

Binder	IC50 (IVTT, inhibition of protein synthesis)
B1	46.6 ng/12.5 µl
B2	20.3 ng/12.5 µl
